Measured values as given in paper PMC12390173, “A Novel Anti-BoNT/A Neutralizing Antibody Possessed Overlapped Epitope with SV2 and Had Prolonged Half-Life In Vivo” (2025).

Biological target: SV2C (cell surface receptor of botulinum) (UniProt Q496J9)

In the case of “BoNT/AHC (C-terminus of the BoNT/A heavy chain) (from UniProt P0DPI0)”, the Kd is reported as 54.3 nM, the koff is reported as 0.014 s⁻¹ and the kon is reported as 258000 M⁻¹ s⁻¹.
